A mixed list of measured activities; the numbers were collected in NIAID ChemDB.

Common to all: tests in culture; organism: Aspergillus fumigatus

Blank or dashed fields: not listed here. Rows are shuffled and stem from different studies. A number after MIC or MFC names an inhibition level or a share of isolates.

compound	strain or isolate	read by	endpoint	result
Fc1ccc(-c2n[nH]c(COc3ncnc4ccccc34)n2)cc1	MTCC 343		MIC100	6.25 µg/mL
CCCCCCCCCC(=O)NC(CCCN)C(N)=O	ATCC 42203	broth dilution	MIC	>100 µg/mL
O=C1CCC(c2ccccc2)=NN1Cc1n[nH]c(=S)n1-c1ccc(Br)cc1			MIC	6 µg/mL
CC(=O)OCC1C=C(c2ccc(Cl)c(Cl)c2)C(=O)O1	12 isolates		MIC90	2 µg/mL
O=C(COc1cccc2ccccc12)OC1CCN(CC(O)(Cn2cncn2)c2ccc(F)cc2F)CC1	0504656	broth dilution	MIC80	1.915 µM
O=C1CCC(c2ccc(Br)cc2)=NN1Cc1n[nH]c(=S)n1-c1ccccc1			MIC	9 µg/mL
CCCCCCCC(=O)NC(CCCN)C(=O)NC(CCCN)C(N)=O	ATCC 42203	broth dilution	MIC	>100 µg/mL
CC(C)(C)C(=O)OC1CCN(CC(O)(Cn2cncn2)c2ccc(F)cc2F)CC1	0504656	broth dilution	MIC80	9.474 µM
C[C@H]1[C@H](O)[C@@H](C)/C=C/C=C/C=C/C=C/C=C/C=C/C=C/[C@H](O[C@@H]2O[C@H](C)[C@@H](O)[C@H](N)[C@@H]2O)C[C@@H]2O[C@](O)(C[C@@H](O)C[C@@H](O)CC[C@H](O)[C@@H](O)C[C@@H](O)CC(=O)O[C@H]1C)C[C@H](O)[C@H]2C(=O)O	12 strains		MIC50	2 µg/mL
C[C@@H]1CCC2(OC1)OC1CC3C4C[C@H](OC5O[C@@H](CO)[C@H](O)[C@@H](O)[C@@H]5O)[C@H]5C[C@@H](OC6O[C@H](CO)[C@@H](O)[C@H](O)[C@H]6O)CC[C@]5(C)C4CC[C@]3(C)C1[C@@H]2C	ATCC 90906		MFC	>20 µg/mL
CCC(C)CC(C)CCCCCCCCC(=O)N[C@H]1C[C@@H](O)[C@H](NCCN)NC(=O)[C@@H]2[C@@H](O)CCN2C(=O)[C@H]([C@H](O)CCN)NC(=O)[C@H]([C@H](O)[C@@H](O)c2ccc(O)cc2)NC(=O)[C@@H]2C[C@@H](O)CN2C(=O)[C@H]([C@@H](C)O)NC1=O	26 isolates		Geometric mean MEC	0.3 µg/mL
COc1cc(NS(=O)(=O)c2ccc(N)cc2)nc(OC)n1	IFM 47450		MIC	128 µg/mL
CC(C)C[C@H](N)C(=O)O	MRCM 32221	broth dilution	MFC100	>18000 µg/mL
Cc1ccc(C(C)C)cc1	F07		MIC	>20 µg/mL
O=C1CCC(c2ccccc2)=NN1Cc1n[nH]c(=S)n1-c1ccccc1			MIC	4 µg/mL
CCCCCCCCCCCC(=O)NC(CCCN)C(N)=O	ATCC 42203	broth dilution	MIC	>100 µg/mL
C[C@@H](N1CCN(c2ccc(-n3cnnn3)cc2)C1=O)[C@@](O)(Cn1cncn1)c1ccc(F)cc1F	437		MIC	>64 µg/mL
CCC(C)n1ncn(-c2ccc(N3CCN(c4ccc(OC[C@H]5CO[C@](Cn6cncn6)(c6ccc(Cl)cc6Cl)O5)cc4)CC3)cc2)c1=O	314 isolates		MIC90	1 µg/mL
OC(CN=C1CCN(CCCCOc2ccccc2)CC1)(Cn1cncn1)c1ccc(F)cc1F			MIC80	>132 µM
C=CCc1ccc(Cn2cc(CN3CCN([C@H](C)[C@](O)(Cn4cncn4)c4ccc(F)cc4F)CC3)c3cccc(F)c32)cc1	ATCC 16424	resazurin	MIC80	64 µg/mL
C=C1CCN([C@H](C)[C@](O)(Cn2cncn2)c2ccc(F)cc2F)CC1	KA-01		MIC	0.2 µg/mL
C[C@@H](c1ncncc1F)[C@](O)(Cn1cncn1)c1ccc(F)cc1F	150 clinical isolates		MIC50	0.5 µg/mL
OC(Cn1cncn1)(Cn1cncn1)c1ccc(F)cc1F	ATCC 96918	broth dilution	MIC	>200 µg/mL
c1coc(-c2n[nH]c(COc3ncnc4ccccc34)n2)c1	MTCC 343		MIC100	12.5 µg/mL
CC(C)CC(O)C(=O)O	MRCM 32552	broth dilution / visual reading	MFC100	18000 µg/mL
C[C@@H](c1ncncc1F)[C@](O)(Cn1cncn1)c1ccc(F)cc1F	314 isolates		MIC90	1 µg/mL
Nc1ccc(S(=O)(=O)Nc2ccnn2-c2ccccc2)cc1	IFM 51126		MIC	64 µg/mL
C[C@@H](N1CCN(Cc2cn(Cc3ccc(Cl)cc3Cl)c3ccccc23)CC1)[C@](O)(Cn1cncn1)c1ccc(F)cc1F	ATCC 16424	resazurin	MIC80	16 µg/mL
CCCCCCCCCCCC(=O)NC(CCCN)C(=O)NC(CCCN)C(=O)NC(CCCN)C(N)=O	ATCC 42203	broth dilution	MIC	12.5 µg/mL
Cc1nc(OCc2nc(-c3ccco3)n[nH]2)c2ccccc2n1	MTCC 343		MIC100	12.5 µg/mL
CC(N1CCCCC1)C(O)(Cn1cncn1)c1ccc(F)cc1F	KA-01		MIC	1.56 µg/mL
COc1cc(NS(=O)(=O)c2ccc(N)cc2)ncn1	IFM 41362		MIC	64 µg/mL
O=C(/C=C/c1ccccc1F)OC1CCN(CC(O)(Cn2cncn2)c2ccc(F)cc2F)CC1	0504656	broth dilution	MIC80	2.057 µM
C[C@@H](N1CCN(Cc2cn(Cc3ccc(F)cc3F)c3c(Cl)cccc23)CC1)[C@](O)(Cn1cncn1)c1ccc(F)cc1F	ATCC 16424	resazurin	MIC80	2 µg/mL
O=C1CCC(c2ccc(Cl)cc2)=NN1Cc1n[nH]c(=S)n1-c1ccc(Cl)cc1			MIC	3 µg/mL
CCCC(=O)OC1CCN(CC(O)(Cn2cncn2)c2ccc(F)cc2F)CC1	0504656	broth dilution	MIC80	2.45 µM
COc1ccc(C2=NN(Cc3n[nH]c(=S)n3-c3ccc(Br)cc3)C(=O)CC2)cc1			MIC	10 µg/mL
C[C@@H](N1CCN(Cc2cn(Cc3ccc(Cl)cc3Cl)c3cc(Cl)ccc23)CC1)[C@](O)(Cn1cncn1)c1ccc(F)cc1F	ATCC 16424	resazurin	MIC80	8 µg/mL
Cc1cc(NS(=O)(=O)c2ccc(N)cc2)no1	IFM 53412		MIC	64 µg/mL
CN(CCCCOc1ccccc1)CC(O)(Cn1cncn1)c1ccc(F)cc1F			MIC80	>154 µM
Oc1ccc(CCN=C=S)cc1	Rit 21	visual reading	MIC	4 µg/mL
FC(F)(F)c1nc(OCc2nc(-c3ccc(Br)cc3)n[nH]2)c2ccccc2n1	MTCC 343		MIC100	12.5 µg/mL
C[C@@H](N1CCN(Cc2cn(Cc3ccc(F)cc3F)c3c(F)cccc23)CC1)[C@](O)(Cn1cncn1)c1ccc(F)cc1F	ATCC 16424	resazurin	MIC80	8 µg/mL
CCC(C)n1ncn(-c2ccc(N3CCN(c4ccc(OC[C@H]5CO[C@](Cn6cncn6)(c6ccc(Cl)cc6Cl)O5)cc4)CC3)cc2)c1=O	35 isolates		Geometric mean MIC	0.31 µg/mL
OC(CN1CCCN(CCCCCOc2ccccc2)C1)(Cn1cncn1)c1ccc(F)cc1F			MIC80	>132 µM
COc1ccc(-c2n[nH]c(COc3nc(C(F)(F)F)nc4ccccc34)n2)cc1OC	MTCC 343		MIC100	50 µg/mL
O=C(OC1CCN(CC(O)(Cn2cncn2)c2ccc(F)cc2F)CC1)C(F)(F)Cl	0504656	broth dilution	MIC80	142 µM
C[C@@H](N1CCN(Cc2cn(-c3ccc(F)cc3)c3ccccc23)CC1)[C@](O)(Cn1cncn1)c1ccc(F)cc1F	ATCC 16424	resazurin	MIC80	1 µg/mL
C[C@H]1[C@H](O)[C@@H](C)/C=C/C=C/C=C/C=C/C=C/C=C/C=C/[C@H](O[C@@H]2O[C@H](C)[C@@H](O)[C@H](N)[C@@H]2O)C[C@@H]2O[C@](O)(C[C@@H](O)C[C@@H](O)CC[C@H](O)[C@@H](O)C[C@@H](O)CC(=O)O[C@H]1C)C[C@H](O)[C@H]2C(=O)O	12 isolates		MIC50	0.25 µg/mL
C[C@@H](N1CCN(Cc2cn(Cc3ccc(Cl)cc3Cl)c3ccc(C#N)cc23)CC1)[C@](O)(Cn1cncn1)c1ccc(F)cc1F	ATCC 16424	resazurin	MIC80	2 µg/mL
Nc1[nH]c(=O)ncc1F	12 strains		MIC90	>128 µg/mL
OC(CN1CCCN(CCCCOc2ccccc2)C1)(Cn1cncn1)c1ccc(F)cc1F			MIC80	>136 µM
CC(N1CCN(c2ccc(-n3cnnn3)cc2)C1=O)[C@@](O)(Cn1cncn1)c1ccc(F)cc1F	IFO6344		MIC	>64 µg/mL
C=CCn1cc(CN2CCN([C@H](C)[C@](O)(Cn3cncn3)c3ccc(F)cc3F)CC2)c2ccc(Cl)cc21	ATCC 16424	resazurin	MIC80	8 µg/mL
O=C(/C=C/c1ccc(Cl)cc1)OC1CCN(CC(O)(Cn2cncn2)c2ccc(F)cc2F)CC1	0504656	broth dilution	MIC80	1.991 µM
Cc1ccc(C2=NN(Cc3n[nH]c(=S)n3-c3ccc(Cl)cc3)C(=O)CC2)cc1			MIC	8 µg/mL
CC1=CC[C@@H]2[C@H](C1)C2(C)C	ATCC 46645		MIC	0.16 µg/mL
CCCCCCCCCCCCC(=O)OC1CCN(CC(O)(Cn2cncn2)c2ccc(F)cc2F)CC1	0504656	broth dilution	MIC80	30.8 µM
CCC(C)CC(C)CCCCCCCCC(=O)N[C@H]1C[C@@H](O)[C@H](NCCN)NC(=O)[C@@H]2[C@@H](O)CCN2C(=O)[C@H]([C@H](O)CCN)NC(=O)[C@H]([C@H](O)[C@@H](O)c2ccc(O)cc2)NC(=O)[C@@H]2C[C@@H](O)CN2C(=O)[C@H]([C@@H](C)O)NC1=O	EMC 1	broth dilution	MIC	128 µg/mL

Again, the opening 4 rows:

compound	strain or isolate	read by	endpoint	result
Fc1ccc(-c2n[nH]c(COc3ncnc4ccccc34)n2)cc1	MTCC 343		MIC100	6.25 µg/mL
CCCCCCCCCC(=O)NC(CCCN)C(N)=O	ATCC 42203	broth dilution	MIC	>100 µg/mL
O=C1CCC(c2ccccc2)=NN1Cc1n[nH]c(=S)n1-c1ccc(Br)cc1			MIC	6 µg/mL
CC(=O)OCC1C=C(c2ccc(Cl)c(Cl)c2)C(=O)O1	12 isolates		MIC90	2 µg/mL